Test results taken from article PMC7150849 (Viruses, 2020).

Tests used:
Format in all cases: cell-based
[1] = system: HIV-1 NL4-3WT pseudovirus; settings: NL4-3WT (subtype B, CXCR4-tropic) pseudovirus, 100 TCID50, peptide + virus 1 h room temperature, TZM-bl cells 48 h 37 °C, luciferase; mean ± SD, three independent experiments
[2] = system: HIV-1 92RW020WT pseudovirus; settings: 92RW020WT (subtype A, CCR5-tropic) pseudovirus, 100 TCID50, TZM-bl cells 48 h, luciferase; mean ± SD, three independent experiments
HIV-1 JRFLWT pseudovirus = settings: JRFLWT (subtype B, CCR5-tropic) pseudovirus, 100 TCID50, TZM-bl cells 48 h, luciferase; mean ± SD, three independent experiments
[3] = system: HIV-1 REJO4541WT pseudovirus; settings: REJO4541WT (subtype B, CCR5-tropic) pseudovirus, 100 TCID50, TZM-bl cells 48 h, luciferase; mean ± SD, three independent experiments
[4] = system: HIV-1 AC10.29WT pseudovirus; settings: AC10.29WT (subtype B, CCR5-tropic) pseudovirus, 100 TCID50, TZM-bl cells 48 h, luciferase; mean ± SD, three independent experiments
[5] = system: HIV-1 QH0692WT pseudovirus; settings: QH0692WT (subtype B, CCR5-tropic) pseudovirus, 100 TCID50, TZM-bl cells 48 h, luciferase; mean ± SD, three independent experiments
[6] = system: HIV-1 ZM53M.PB12WT pseudovirus; settings: ZM53M.PB12WT (subtype C, CCR5-tropic) pseudovirus, 100 TCID50, TZM-bl cells 48 h, luciferase; mean ± SD, three independent experiments
[7] = system: HIV-1 ZM109F.PB4WT pseudovirus; settings: ZM109F.PB4WT (subtype C, CCR5-tropic) pseudovirus, 100 TCID50, TZM-bl cells 48 h, luciferase; mean ± SD, three independent experiments

| Compound | IC50 [1] [nM] | IC50 [2] [nM] | IC50 (HIV-1 JRFLWT pseudovirus) [nM] | IC50 [3] [nM] | IC50 [4] [nM] | IC50 [5] [nM] | IC50 [6] [nM] | IC50 [7] [nM] |
| --- | --- | --- | --- | --- | --- | --- | --- | --- |
| CC[C@H](C)[C@H](NC(=O)[C@H](CC(C)C)NC(=O)[C@H](CCC(=O)O)NC(=O)[C@H](CCC(=O)O)NC(=O)[C@@H](NC(=O)[C@H](CCCCN)NC(=O)[C@H](CCCCN)NC(=O)[C@@H](NC(=O)[C@H](Cc1ccc(O)cc1)NC(=O)[C@H](CCC(=O)O)NC(=O)[C@H](CCC(=O)O)NC(=O)[C@@H](NC(=O)[C@H](CCCCN)NC(=O)[C@H](CCCCN)NC(=O)[C@H](CC(=O)O)NC(=O)[C@H](Cc1c[nH]c2ccccc12)NC(=O)[C@H](CCC(=O)O)NC(=O)[C@H](CCC(=O)O)NC(=O)[C@H](Cc1c[nH]c2ccccc12)NC(C)=O)[C@@H](C)CC)[C@@H](C)O)[C@@H](C)CC)C(=O)N[C@@H](CCCCN)C(=O)N[C@@H](CCCCN)C(=O)N[C@@H](CO)C(N)=O [SC22EK] | 47.9 ± 12.9 | 428 ± 56.9 | 467 ± 105 | 382 ± 95.5 | 111 ± 37.1 | 2060 ± 292 | 47.3 ± 3.4 | 43.6 ± 8.1 |
| CC[C@H](C)[C@H](NC(=O)[C@H](CCC(=O)O)NC(=O)[C@H](CCCNC(=N)N)NC(=O)[C@H](CCC(=O)O)NC(=O)[C@H](Cc1c[nH]c2ccccc12)NC(=O)[C@@H](NC(=O)[C@H](CCC(=O)O)NC(=O)[C@H](Cc1c[nH]c2ccccc12)NC(=O)[C@H](CO)NC(C)=O)[C@@H](C)O)C(=O)N[C@@H](CCC(=O)O)C(=O)N[C@@H](CC(N)=O)C(=O)N[C@@H](Cc1ccc(O)cc1)C(=O)N[C@H](C(=O)N[C@@H](CCCNC(=N)N)C(=O)N[C@@H](CCC(N)=O)C(=O)N[C@H](C(=O)N[C@@H](Cc1ccc(O)cc1)C(=O)N[C@@H](CCCNC(=N)N)C(=O)N[C@H](C(=O)N[C@@H](CC(C)C)C(=O)N[C@@H](CCC(=O)O)C(=O)N[C@@H](CCC(=O)O)C(=O)N[C@@H](CO)C(=O)N[C@@H](CCC(N)=O)C(=O)N[C@@H](CCC(=O)O)C(=O)N[C@@H](CCC(N)=O)C(=O)N[C@@H](CCC(N)=O)C(=O)N[C@@H](CC(=O)O)C(=O)N[C@@H](CCCNC(=N)N)C(=O)N[C@@H](CC(N)=O)C(=O)N[C@@H](CCC(=O)O)C(=O)N[C@@H](CCCNC(=N)N)C(=O)N[C@@H](CC(=O)O)C(=O)N[C@@H](CC(C)C)C(=O)N[C@@H](CC(C)C)C(=O)N[C@@H](CCC(=O)O)C(N)=O)[C@@H](C)CC)[C@@H](C)CC)[C@@H](C)O [SFT, sifuvirtide] | 1.9 ± 0.8 | 7.5 ± 3.1 | 9 ± 2.1 | 6.1 ± 0.2 | 2.1 ± 1 | 28.6 ± 1.5 | 2.1 ± 0.8 | 2.6 ± 1.1 |
| CC[C@H](C)[C@H](NC(=O)[C@H](CCC(=O)O)NC(=O)[C@H](CCC(=O)O)NC(=O)[C@@H](NC(=O)[C@H](CCCCN)NC(=O)[C@H](CCCCN)NC(=O)[C@@H](NC(=O)[C@H](Cc1ccc(O)cc1)NC(=O)[C@H](CCC(=O)O)NC(=O)[C@H](CCC(=O)O)NC(=O)[C@@H](NC(=O)[C@H](CCCCN)NC(=O)[C@H](CCCCN)NC(=O)[C@H](CCC(=O)O)NC(=O)[C@H](Cc1c[nH]c2ccccc12)NC(=O)[C@H](CCC(=O)O)NC(=O)[C@H](CCC(=O)O)NC(=O)[C@H](Cc1c[nH]c2ccccc12)NC(=O)[C@@H](NC(=O)[C@H](CCSC)NC(=O)[C@H](CCC(=O)O)NC(C)=O)[C@@H](C)O)[C@@H](C)CC)[C@@H](C)O)[C@@H](C)CC)C(=O)N[C@@H](CC(C)C)C(=O)N[C@@H](CCCCN)C(N)=O [HP23] | 0.6 ± 0.2 | 2.1 ± 1 | 5.9 ± 2 | 3.1 ± 0.5 | 0.7 ± 0.3 | 34.6 ± 4.9 | 1.2 ± 0.1 | 0.8 ± 0.1 |
| CC[C@H](C)[C@H](NC(=O)[C@H](CC(C)C)NC(=O)[C@H](CCC(=O)O)NC(=O)[C@H](CCC(=O)O)NC(=O)[C@@H](NC(=O)[C@H](CCCCN)NC(=O)[C@H](CCCCN)NC(=O)[C@@H](NC(=O)[C@H](Cc1ccc(O)cc1)NC(=O)[C@H](CCC(=O)O)NC(=O)[C@H](CCC(=O)O)NC(=O)[C@@H](NC(=O)[C@H](CCCCN)NC(=O)[C@H](CCCCN)NC(=O)[C@H](CC(=O)O)NC(=O)[C@H](Cc1c[nH]c2ccccc12)NC(=O)[C@H](CCC(=O)O)NC(=O)[C@H](CCC(=O)O)NC(=O)[C@H](Cc1c[nH]c2ccccc12)NC(=O)[C@@H](NC(=O)[C@H](CCSC)NC(C)=O)[C@@H](C)O)[C@@H](C)CC)[C@@H](C)O)[C@@H](C)CC)C(=O)N[C@@H](CCCCN)C(=O)N[C@@H](CCCCN)C(=O)N[C@@H](CO)C(N)=O [MTSC22EK] | 2 ± 0.8 | 6.7 ± 2.8 | 19.5 ± 6.6 | 9.6 ± 2.5 | 3.1 ± 0.7 | 68.9 ± 7.5 | 2.7 ± 0.2 | 2 ± 0.4 |
